The values that follow come from ChEMBL document CHEMBL1142398, “Chemical stability of the peroxide bond enables diversified synthesis of potent tetraoxane antimalarials” (J Med Chem, 2008).

Test [1] has as its system Plasmodium falciparum. The following applies: D6.
The test system of test [2] is Plasmodium falciparum. The note with it: TM91C235.
The subject of test [3] is Plasmodium falciparum. The note with it: W2.

As usually defined, the IC90 is the point of the concentration-response curve where the effect stands at 90%. Lower therefore signals greater potency. Regarding `[N-]=[N+]=NCC1CCC2(CC1)OOC1(CCCCC1)OO2`, the IC90 came out at 20.3 nM in the test with Plasmodium falciparum [1], 22.2 nM with Plasmodium falciparum [2] and 11 nM with Plasmodium falciparum [3].
